Results taken from patent publication US20070276049A1 (priority 2003, published 2007).

Test system: human T cells
Format: cell-based
Conditions: T cells plus GML (15 μg/ml) plus TSST-1 (10 μg/ml)

CCCCCCCCCCCC(=O)OCC(O)CO (stereo not shown) [GML, glycerol monolaurate]
Counts/min (incorporation of 3H-thymidine into DNA): 5,500 Counts/min
